Results of unrelated studies side by side (data: NIAID ChemDB).

All rows: growth or infection tests; agent: Hepatitis C virus; measure: EC50

Rows are shuffled and stem from different studies.

compound	changes	setting	method	cells	strain or isolate	result
O=C(O)c1ccc2c(C3CCCCC3)c3n(c2c1)CC(C(=O)N1CCCOCC1)=Cc1ccccc1-3	-	-	replicon	Huh7	-	0.01–1 µM
CN(c1ccccc1/C=N/NC(=O)Cc1ccccc1)S(=O)(=O)c1ccc(C(F)(F)F)cc1	-	-	replicon	Huh7	-	<5 µM
CS(=O)(=O)NC(=O)c1c(-c2ccc[nH]c2=O)c2c3occc3ccc2n1Cc1ccc(F)cc1F	-	-	replicon	-	-	<0.5 µM
Cc1nocc1C(=O)Nc1ccc(-c2cc(N(C(=O)C3CCC(C)CC3)C(C)C)c(C(=O)O)s2)cc1	-	-	replicon	-	1a	<0.5 µM
O=C(O)/C=C/c1cccc(-c2n[nH]c(C3(NC(=O)c4ccc5c(C6CCCCC6)c6n(c5c4)CC=Cc4ccccc4-6)CCCC3)n2)c1	-	-	replicon	Huh7	-	0.01–1 µM
C#Cc1cn([C@@H]2O[C@H](CO)[C@@H](O)C2(F)F)c2ncnc(N)c12	-	-	replicon	HCV replicon	2a	3.29 µM
CNC(=O)c1c(-c2ccccc2)oc2ccc(OCC(F)(F)F)cc12	-	-	replicon	Huh7	-	<30 µM
Nc1nc(O[C@H]2CCOC2)c2nc(-c3ccc(C(=O)NCCN4CCCC4)cc3)ccc2n1	-	-	replicon	Huh7	-	<0.3 µM
CNC(=O)c1c(-c2ccc(F)cc2)oc2cc(N3CCCCC3)c(OC(C)C)cc12	-	-	replicon	Huh7	-	<1 µM
CS(=O)(=O)NC(=O)c1c(-c2ccc[nH]c2=O)c2c3occc3c(F)cc2n1Cc1ccc2nc(C(F)(F)F)[nH]c2c1	-	-	replicon	-	-	<0.5 µM
CC(C)(C)c1ccc(S(=O)(=O)Oc2ccccc2/C=N/NC(=O)Cc2ccccc2)cc1	-	-	replicon	Huh7	-	<5 µM
NS(=O)(=O)c1ccc(CNc2nc(Nc3cccc(F)c3)c3nc(-c4ccc(F)cc4)ccc3n2)cc1	-	-	replicon	-	-	<0.1 µM
CCOc1nc(N)nc2c1ncn2[C@@H]1O[C@@H]2COP(=O)(OC(C)C)O[C@H]2[C@@]1(C)F	-	68 d	replicon	-	2a	0.8 µM
Nc1ncnc2c1c(-c1ccccc1)cn2[C@@H]1O[C@H](CO)[C@@H](O)[C@H]1F	-	-	replicon	HCV replicon	1b	18.83 µM
Cc1ccc2cc(Cn3c(C(=O)O)c(-c4ccc[nH]c4=O)c4c5occc5c(F)cc43)c(Cl)nc2c1	-	-	replicon	-	-	<0.5 µM
CC1CCC(C(=O)N(c2cc(-c3ccc(NC(=O)c4ccc(F)cc4)nc3)sc2C(=O)O)C(C)C)CC1	-	-	replicon	-	1b	<0.5 µM
CC(C)(C)N=C1SC(c2ccc(NC(=O)[C@H]3CCCN3C(=O)OCc3ccccc3)cc2)C(=O)N1Cc1ccccn1	-	-	replicon	Huh7	-	0.1–1 µM
O=S(=O)(N/N=C/c1ccccc1OS(=O)(=O)c1ccc(C(F)(F)F)cc1)c1cccc2ccccc12	-	-	replicon	Huh7	-	5–50 µM
CC1CCC(C(=O)N(c2cc(-c3ccc(NC(=O)c4ccn[nH]4)cc3)sc2C(=O)O)C(C)C)CC1	-	-	replicon	-	1b	<0.5 µM
CN(C)S(=O)(=O)NC(=O)c1ccc2c(C3CCCCC3)c3n(c2c1)C[C@H](C(=O)N1CCOCC1)Cc1ccccc1-3	-	-	replicon	Huh7	-	0.01–1 µM
CC(=O)N1c2cccc(O)c2NC2=C(C(=O)CC(C)(C)C2)C1c1cccc(Cl)c1Cl	-	-	luciferase / reporter gene / replicon	-	1b	0.85 µM
CN1CC[C@H](C(=O)Nc2ccc(-c3ccc4nc(NCc5ccc(S(N)(=O)=O)cc5)nc(OC5CC5)c4n3)cc2)C1	-	-	replicon	-	-	<0.1 µM
CNC(=O)c1cc2oc(-c3ccc(F)cc3)c(C(=O)O)c2cc1OC(C)C	-	-	replicon	Huh7	-	>30 µM
CC1(C)CC(=O)C2=C(C1)Nc1c(O)cccc1NC2c1cnc(Oc2ccccc2Br)s1	-	-	luciferase / reporter gene / replicon	-	1b	13.17 µM
CC(C)S(=O)(=O)NC(=O)c1c(-c2ccc[nH]c2=O)c2c3occc3c(F)cc2n1Cc1cc(C(N)=O)ccc1F	-	-	replicon	-	-	<0.5 µM
Cc1ccc(/C=N/NC(=O)Cc2cccc(Cl)c2)c(OS(=O)(=O)c2ccc(C(F)(F)F)cc2)c1	-	-	replicon	Huh7	-	>50 µM
Nc1ncnc2c1c(-c1ccccc1)cn2[C@H]1O[C@H](CO)[C@@H](O)C1(F)F	-	-	replicon	HCV replicon	2a	10.75 µM
C[C@@H](NC(=O)OCc1ccccc1)C(=O)Nc1ccc(C2SC(=Nc3cccc(F)c3)N(Cc3ccc(OC(F)(F)F)cc3)C2=O)cc1	-	-	replicon	Huh7	-	1–5 µM
O=C(O)/C=C/c1ccc(NC(=O)C2(NC(=O)c3ccc4c(C5CCCCC5)c5n(c4c3)CCCn3cccc3-5)CCCC2)cc1	-	-	replicon	Huh7	-	1–10 µM
CCCCCOc1ccc(N(C(=O)OC)c2nc(-c3ccc(F)cc3)cs2)cc1F	-	-	-	-	-	<1 µM
CNC(=O)c1c(-c2ccc(F)cc2)oc2cc(N3CCOCC3)c(OCc3cscn3)cc12	-	-	replicon	Huh7	-	<1 µM
CCCCCOc1ccc(N(C(=O)OC)c2nc(-c3ccncc3)cs2)cc1C(F)(F)F	-	-	-	-	-	<1 µM
O=C(Cc1ccccc1)N/N=C/c1ccccc1OS(=O)(=O)c1ccc(C(F)(F)F)cc1	-	-	replicon	Huh7	-	<5 µM
CNC(=O)c1c(-c2ccccc2)oc2cc(OC)ccc12	-	-	replicon	Huh7	-	<10 µM
C[C@H](NC(=O)OCc1ccccc1)C(=O)Nc1ccc(C2SC(=Nc3ccc(N4CCOCC4)cc3)N(Cc3ccccn3)C2=O)cc1	-	-	replicon	Huh7	-	>5 µM
CNC(=O)c1c(-c2ccc(F)cc2)oc2cc(N(C)S(C)(=O)=O)c(OCC(=O)Nc3nccs3)cc12	-	-	replicon	Huh7	-	<1 µM
CCOc1nc(NCc2c(F)cc(OC)cc2F)nc2ccc(-c3ccc(F)cc3)nc12	-	-	replicon	-	-	<0.1 µM
O=C(Cc1ccccc1)N/N=C/c1ccccc1OS(=O)(=O)c1cccc(F)c1	-	-	replicon	Huh7	-	>50 µM
NS(=O)(=O)c1ccc(CNc2nc(NCC(F)(F)F)c3nc(-c4ccc(Cl)c(S(N)(=O)=O)c4)ccc3n2)cc1	-	-	replicon	-	-	<0.1 µM
O=C(Nc1ccc(C2SC(=Nc3cccc(Oc4ccccc4)c3)N(Cc3ccco3)C2=O)cc1)[C@H]1CCCN1C(=O)OCc1ccccc1	-	-	replicon	Huh7	-	0.1–1 µM
CCCCCOc1ccc(N(C(=O)NC(C)(C)C)c2nc(-c3cccnc3)cs2)cc1C(F)(F)F	-	-	-	-	-	<1 µM
O=C(Cc1ccc2c(c1)OCO2)N/N=C/c1ccccc1OS(=O)(=O)c1ccc(C(F)(F)F)cc1	-	-	replicon	Huh7	-	<5 µM
O=C(O)/C=C/c1ccc(NC(=O)C2(NC(=O)c3ccc4c(C5CCCCC5)c5n(c4c3)CCCc3cc(O)ccc3-5)CCCC2)cc1	-	-	replicon	Huh7	-	0.01–1 µM
Nc1ncnc2c1c(-c1ccsc1)cn2[C@H]1O[C@H](CO)[C@@H](O)C1(F)F	-	-	replicon	HCV replicon	2a	8.52 µM
CC(C)NS(=O)(=O)NC(=O)c1ccc2c(C3CCCCC3)c3n(c2c1)CC(C(=O)N1CCOCC1)=Cc1ccccc1-3	-	-	replicon	Huh7	-	0.01–1 µM
O=C(O)c1c(-c2ccc[nH]c2=O)c2c3occc3c(F)cc2n1Cc1cc[nH]c(=O)c1	-	-	replicon	-	-	<0.5 µM
CCCc1nc(NCc2ccc(S(N)(=O)=O)cc2)nc2ccc(-c3ccc(F)cc3)nc12	-	-	replicon	-	-	<0.1 µM
O=C(O)c1c(-c2ccc[nH]c2=O)c2c3occ(Cl)c3c(F)cc2n1Cc1cc2ccccc2nc1Cl	-	-	replicon	-	-	<0.5 µM
CCOc1nc(NCc2ccc(S(N)(=O)=O)cc2)nc2ccc(-c3ccc(N4CCC(O)C4=O)cc3)nc12	-	-	replicon	-	-	<0.1 µM
CC1(C)CC(=O)C2=C(C1)Nc1c(O)cccc1N(C(=O)CCC(=O)NCc1ccsc1)C2c1ccc(OCc2ccccc2)cc1Cl	-	-	luciferase / reporter gene / replicon	-	1b	11.36 µM
Nc1ncnc2c1c(-c1cccs1)cn2[C@@H]1O[C@H](CO)[C@@H](O)[C@H]1F	-	-	replicon	HCV replicon	1b	1.99 µM
CC1CCC(C(=O)N(c2cc(-c3ccc(NC(=O)c4cccnn4)cc3)sc2C(=O)O)C2CCC2)CC1	-	-	replicon	-	1b	<0.5 µM
COc1c(-c2ccc3cc(NS(C)(=O)=O)ccc3c2)cc(-n2ccc(=O)[nH]c2=O)cc1C(C)(C)C	S556G	-	luciferase	Huh7	genotype 1a H77	0.029 µM
CN(CCS(C)(=O)=O)c1nc(NCc2ccc(S(N)(=O)=O)cc2)nc2ccc(-c3ccc(F)cc3)nc12	-	-	replicon	-	-	<0.1 µM
Cc1ccc(C(=O)Nc2ccc(-c3cc(N(C(=O)C4CCC(C)CC4)C(C)C)c(C(=O)O)s3)cc2)o1	-	-	replicon	-	1a	<0.5 µM
NC(=O)c1ccc2c(C3CCCCC3)c3n(c2c1)CCCc1ncccc1-3	-	-	replicon	Huh7	-	1–10 µM
CC1(C)CC(=O)C2=C(C1)Nc1c(O)cccc1NC2c1c(F)cc(OCc2ccccc2)cc1F	-	-	luciferase / reporter gene / replicon	-	1b	3.37 µM
C[C@H](N)C(=O)Nc1ccc(-c2ccc3nc(NCc4ccc(S(N)(=O)=O)cc4)nc(NCC(F)(F)F)c3n2)cc1F	-	-	replicon	-	-	<0.1 µM
COc1ccc2c(c1)C=C(C(=O)N1CCOCC1)Cn1c-2c(C2CCCCC2)c2ccc(C(=O)O)cc21	-	-	replicon	Huh7	-	0.01–1 µM
O=C(NS(=O)(=O)C1CC1)c1c(-c2ccc[nH]c2=O)c2c3occc3c(F)cc2n1Cc1cc2ccccc2nc1Cl	-	-	replicon	-	-	<0.5 µM
COc1cccc(CC(=O)N/N=C/c2cc(F)ccc2OS(=O)(=O)c2ccc(C(F)(F)F)cc2)c1	-	-	replicon	Huh7	-	<5 µM
CC1(C)CC(=O)C2=C(C1)Nc1c(O)cccc1N(C(=O)c1ccc3c(c1)OCO3)C2c1ccc(OCc2ccccc2)cc1F	-	-	luciferase / reporter gene / replicon	-	1b	1.98 µM
CNC(=O)c1c(-c2ccc(F)cc2)oc2cc(N3CCOCC3)c(OCc3cccc(C(=O)O)c3)cc12	-	-	replicon	Huh7	-	<10 µM
CCCCCCCCCc1ccc(N(C(=O)OCOC(=O)C(N)C(C)C)c2nc(-c3cccnc3)c(F)s2)cc1C(F)(F)F	-	-	-	-	-	<1 µM
O=C(CC1CCCCC1)N/N=C/c1ccccc1OS(=O)(=O)c1ccc(C(F)(F)F)cc1	-	-	replicon	Huh7	-	5–50 µM
O=C(Nc1ccc(C2SC(=Nc3ccc(N4CCOCC4)cc3)N(Cc3ccccn3)C2=O)cc1)[C@H]1CCC(=O)N1C(=O)C(c1ccccc1)c1ccccc1	-	-	replicon	Huh7	-	0.1–1 µM

A second listing of 4 rows from above:

compound,changes,setting,method,cells,strain or isolate,result
Cc1ccc(C(=O)Nc2ccc(-c3cc(N(C(=O)C4CCC(C)CC4)C(C)C)c(C(=O)O)s3)cc2)o1,-,-,replicon,-,1a,<0.5 µM
O=C(O)c1ccc2c(C3CCCCC3)c3n(c2c1)CC(C(=O)N1CCCOCC1)=Cc1ccccc1-3,-,-,replicon,Huh7,-,0.01–1 µM
CS(=O)(=O)NC(=O)c1c(-c2ccc[nH]c2=O)c2c3occc3ccc2n1Cc1ccc(F)cc1F,-,-,replicon,-,-,<0.5 µM
CCCCCCCCCc1ccc(N(C(=O)OCOC(=O)C(N)C(C)C)c2nc(-c3cccnc3)c(F)s2)cc1C(F)(F)F,-,-,-,-,-,<1 µM

Two numbers with a dash give a range or band. ECn is the concentration giving n% inhibition of infection, replication or growth. An empty or dashed field is not shown.